# Results deposited as PubChem BioAssay AID624099 (ICCB-Longwood, 2012)
# Purpose: 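Human genes that papillomavirus E2 requires to repress the HPV18 LCR promoter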 (primary screen)
# Cells: human C33A cervical carcinoma cells (HPV-negative) stably expressing BPV1 E2 and an HPV18 LCR luciferase reporter
# Reagents: siRNA pool against human genes, 40 nM
# Timing: 72 h
# Measured: 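HPV18 LCR reporter light per well, converted to plate-wise z-scores that exclude control wells, and averaged over triplicate plates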
# Reading the numbers: mean z-score and z-score: higher = stronger reporter signal, weaker E2 silencing
# Rule for the call: 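Mean z ≥ 2 together with z ≥ 2 in two or more of the three replicates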
# Here is an unselected part of about 21,000 deposited reagents. Of all reagents, 497 (2.4%) got an active call. 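Higher z means weaker E2 silencing; only reporter increases were scored, and knock-downs that hurt cell survival may mask genuine repressor factors.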 A number with no mark means an inactive call. Reagent sequences are not shown.
The opening 7 entries, ahead of the listing:
target gene,mean z-score,"z-score, replicate A","z-score, replicate B","z-score, replicate C"
IL13RA1,0.82,0.78,0.91,0.77
NCOR1P1,-0.81,-1.02,-0.58,-0.82
DNAJC2,0.03,-0.28,-0.02,0.38
ITGA5,-0.32,-0.45,-0.27,-0.24
C16orf86,-0.3,-0.02,-0.39,-0.5
HSBP1,0.25,0.68,0.05,0.01
PDE6B,0.71,0.84,0.47,0.82

Main list, from the start:
target gene,mean z-score,"z-score, replicate A","z-score, replicate B","z-score, replicate C"
IL13RA1,0.82,0.78,0.91,0.77
NCOR1P1,-0.81,-1.02,-0.58,-0.82
DNAJC2,0.03,-0.28,-0.02,0.38
ITGA5,-0.32,-0.45,-0.27,-0.24
C16orf86,-0.3,-0.02,-0.39,-0.5
HSBP1,0.25,0.68,0.05,0.01
PDE6B,0.71,0.84,0.47,0.82
CMA1,-0.55,-0.5,-0.58,-0.59
GAB1,-0.13,0.05,-0.18,-0.25
CA14,0.04,0.01,0.07,0.05
HOXD1,0.56,0.94,0.29,0.45
OR7D4,0.78,0.54,0.84,0.95
LOC388652 (retired record),-0.83,-0.47,-1.19,-0.82
ARHGAP28,-0.1,-0.14,-0.05,-0.11
SPICE1,-0.85,-1.24,-0.74,-0.56
TMPRSS11D,0.97,0.72,0.8,1.4
GKN1,-1.38,-1.1,-1.56,-1.49
TIGIT,-0.97,-1.22,-0.72,-0.97
SRRM2,0.83,0.95,0.87,0.67
TGM1,-0.48,-0.54,-0.36,-0.53
MSLNL,-0.25,-0.28,-0.04,-0.42
LONRF1,0.8,1.03,0.3,1.06
KRT76,0.71,0.91,0.6,0.62
CRACD,-0.9,-1.22,-1.03,-0.46
NCOA4,1.09,0.85,1.1,1.31
DAPK1,0.47,0.87,0.29,0.25
ISM2,-0.38,-0.5,-0.27,-0.38
WWP1P1,-0.01,-0.31,0.08,0.19
TMEM92,-0.4,-0.49,-0.48,-0.22
ABITRAM,-0.07,-0.14,-0.01,-0.05
PCDHA3,-1.14,-0.98,-1.35,-1.1
LOC153778 (retired record),1.02,1.56,0.59,0.92
TECTA,-1.11,-1.2,-0.98,-1.16
TRPC3,0.18,0.23,0.26,0.06
NAPSA,0.75,0.84,0.74,0.66
AMMECR1,0.3,0.65,0.24,0.03
SPDYC,-0.7,-0.51,-0.83,-0.76
UCK1,-0.02,0.1,0.31,-0.46
PLAAT4,1.28,1.27,1.29,1.29
PRR14L,-1.39,-1,-1.69,-1.48
MPL,0.62,0.44,0.71,0.71
MAP1S,0.23,1.12,0.57,-1.02
ACCSL,0.45,0.21,0.42,0.72
B3GALT5,-0.22,-0.27,-0.18,-0.21
CIAPIN1,-0.63,-0.44,-0.58,-0.88
PMP2,-0.09,-0.2,-0.13,0.06
ATF6B,1.05,0.38,1.41,1.36
ADORA2A,0.78,0.76,0.75,0.83
CDH9,-0.21,-0.72,0.33,-0.25
DDX42,-0.02,-0.35,0.12,0.17
FGFR2,-0.62,-0.06,-0.84,-0.95
RWDD3,0,0.21,-0.16,-0.06
PEX13,0.31,0.53,0.42,-0.03
CAPZB,-1.46,-1.6,-1.43,-1.36
MIR17HG,-1.69,-1.07,-1.84,-2.17
DNAJB7,0.16,0.02,0.41,0.05
LILRB1,0.97,0.82,1.11,0.98
